The text below walks through data of US20200206342A1 (BOARD OF TRUSTEES OF THE UNIVERSITY OF ILLINOIS, published 2020).

The assay has as its target T1, soluble CD4 sCD[…] (domains D1-D2).
T1 construct: domain: D1-D2; also called CD4(D1-D2); sCD4(D1D2)
Nature of the assay: flow cytometry titration, Expi293F cells expressing the Env, FITC anti-CD4 [Q842.d12 panel]. For orientation: Flow cytometry measures light scatter and fluorescence of single cells or particles in a stream.

B1: Q842.d12 Env gp160 wildtype (other)
chain: not shown
notes: substitutions of the variants are in HXB2 numbering; also called EnvQ842.d12; CD5-Q842.d12 gp160
Turning to B1, the binding result is given as “binds”.
